# Reference: US20250019341A1, “COMPOUNDS AND METHOD OF USE THEREOF FOR TREATING BACTERIAL DISEASES” (PEKING UNIVERSITY, priority 2021, published 2025)
# Experiment: Quantification of erucamide in Arabidopsis leaves (GC-MS/MS)
smiles,measurement,setting,value
"CCCCCCCC/C=C\CCCCCCCCCCCC(N)=O (single isomer, unassigned) [Compound T3SI-1, erucamide]",concentration of erucamide in leaves,Col-0,about 2.6 g/g
same,concentration of erucamide in leaves,FAAH overexpression plants,about 1.6 mg/g
